Assay results taken from US20030166028A1.

Tested on: FL-MEK1-A546 peptide

Substance: trypsin
- Ratio 570/525 (trypsin .1 uM, 30 minutes at 37 C): 0.63
